From ChEMBL document CHEMBL1240404, “Rapamycin protects mice from staphylococcal enterotoxin B-induced toxic shock and blocks cytokine release in vitro and in vivo” (Antimicrob Agents Chemother, 2010)

Assays:
Mus musculus [1] = experiment: Antiinflammatory activity in C3H/HeJ mouse assessed as reduction in SEB-induced increase in serum MCP-1 level at 0.7 mg/kg, in after 2 hrs; settings: strain C3H/HeJ
Mus musculus [2] = experiment: Antiinflammatory activity in C3H/HeJ mouse assessed as reduction in SEB-induced increase in lung IL-2 level at 0.7 mg/kg, in measured after 51 hrs of SEB challenge; parameters: scale not given: the % may be the effect or the level left
Mus musculus [3] = experiment: Antiinflammatory activity in C3H/HeJ mouse assessed as reduction in SEB-induced increase in serum IL-6 level at 0.7 mg/kg, in after 2 hrs; settings: strain C3H/HeJ
Mus musculus [4] = experiment: Antiinflammatory activity in C3H/HeJ mouse assessed as reduction in SEB-induced increase in lung MCP-1 level at 0.7 mg/kg, in measured after 51 hrs of SEB challenge; parameters: scale not given: the % may be the effect or the level left
Mus musculus [5] = experiment: Antiinflammatory activity in C3H/HeJ mouse assessed as reduction in SEB-induced increase in lung IL-6 level at 0.7 mg/kg, in measured after 51 hrs of SEB challenge; parameters: scale not given: the % may be the effect or the level left

SMILES: CO[C@H]1C[C@@H]2CC[C@@H](C)[C@@](O)(O2)C(=O)C(=O)N2CCCC[C@H]2C(=O)O[C@H]([C@H](C)C[C@@H]2CC[C@@H](O)[C@H](OC)C2)CC(=O)[C@H](C)/C=C(\C)[C@@H](O)[C@@H](OC)C(=O)[C@H](C)C[C@H](C)/C=C/C=C/C=C/1C
- inhibition (INH) (Mus musculus [1]): 90%
- Activity (Mus musculus [2]): 80%
- inhibition (INH) (Mus musculus [3]): 80%
- Activity (Mus musculus [4]): 56%
- Activity (Mus musculus [5]): 65%
